A word on the inhibition: it is the relative decrease from the control value, in per cent.

This is a selection; strong and weak results do not stand in their true shares. Activity calls are given as the source filed them. No stated cut-off is given here; in the data, active means inhibition above about 8.5%; inactive means the rest.

The experiment has as its system HIV-1 gp120 / PG9 antibody interaction. Kind of experiment: binders of HIV-1 gp120 antibody PG9, primary screen, biochemical, TR-FRET (AID 624416). The conditions noted are these: TR-FRET gp120-PG9 antibody binding; at 6.7 µM; hits give high values.
Regarding `COc1ccc(NC2CCN(CCc3ccccc3)CC2)c(OC)c1`, the inhibition is inactive: -3.42%.

For `CCOC(=O)N1CCC(Nc2ccc(F)cc2)CC1`, the inhibition is inactive: -2.58%.

Take `O=C(NCC1(N2CCCCC2)CCCCC1)c1ccc(F)cc1`: the inhibition is inactive: -1.69%.

With `O=P1(N(CCCl)CCCl)SCCCS1`, the inhibition is inactive: -0.26%.

Consider `CCCCn1nnnc1C(c1cc2ccccc2o1)N1CCC(n2c(=O)[nH]c3ccccc32)CC1` (stereo unspecified), for which the inhibition was inactive: 0.16%.

As to `CCCCOc1ccc(C(=O)NCC2(N3CCOCC3)CCCCC2)cc1`, the inhibition is inactive: 0.26%.

Consider `CCOc1ccc(C)cc1CN(CCCl)CCCl`, for which the inhibition was inactive: -0.88%.

In the case of `O=C1CCN(Cc2ccccc2)CC1`, the inhibition is inactive: -1.03%.

Turning to `CC(C)(C)n1nnnc1C(c1ccccc1)N1CCC(n2c(=O)[nH]c3ccccc32)CC1` (stereo unspecified), the inhibition was inactive: -0.08%.

For `O=c1[nH]c2ccccc2n1C1CCN(C(c2cccc3ccccc23)c2nnnn2C2CCCC2)CC1` (stereo unspecified), the inhibition is inactive: -0.38%.

For `COc1cc(C(=O)NCC2(N(C)C)CCCCC2)ccc1OC(F)F`, the inhibition was inactive: -0.73%.

With `CCOC(=O)N1CCC(Nc2cccc(C)c2)CC1`, the inhibition is inactive: -2.06%.

On to `O=c1[nH]c2ccccc2n1C1CCN(C(c2ccccc2)c2nnnn2C2CCCCC2)CC1` (stereo unspecified), for which the inhibition was inactive: 0.13%.

Turning to `Cc1cccc(NC2(C#N)CCN(Cc3ccccc3)CC2)c1`, the inhibition was inactive: 2.07%.

In the case of `CSc1ccccc1C(=O)NCC1(N2CCCCC2)CCCCC1`, the inhibition is inactive: -2.55%.

`CCCCn1nnnc1C(c1cccs1)N1CCC(n2c(=O)[nH]c3ccccc32)CC1` (stereo unspecified): the inhibition is inactive: -1.85%.

As to `O=C(NCC1(N2CCCCC2)CCCCC1)c1cccs1`, the inhibition is inactive: 0.75%.

Turning to `CCCCn1nnnc1C(CC)N1CCC(n2c(=O)[nH]c3ccccc32)CC1` (stereo unspecified), the inhibition is inactive: 0.48%.

Take `O=C(NCC1(N2CCCCC2)CCCCC1)c1ccc(=O)[nH]c1`: the inhibition is inactive: -2.05%.

For the molecule `CCC(c1nnnn1C1CCCC1)N1CCC(n2c(=O)[nH]c3ccccc32)CC1` (stereo unspecified), the inhibition is inactive: 1.06%.

For `CC(C)(C)OC(=O)N1CCC(N(C(=O)c2ccccc2)c2ccc(F)cc2)CC1`, the inhibition is inactive: 0.15%.

`COc1ccc(C(=O)NCC2(N3CCCCC3)CCCCC2)c(OC)c1OC`: the inhibition is inactive: 1.54%.

`COc1ccc(C(=O)NCC2(N3CCCCC3)CCCCC2)cc1`: the inhibition is inactive: 0.48%.

As for `CCCCn1nnnc1C(c1ccc(OC)cc1)N1CCC(n2c(=O)[nH]c3ccccc32)CC1` (stereo unspecified), the inhibition was inactive: -0.31%.

Consider `CCOC(=O)N1CCC(Nc2ccc(OC)cc2)CC1`, for which the inhibition was inactive: -2.36%.

`COc1ccc(Cl)cc1C(=O)NCC1(N2CCOCC2)CCCCC1`: the inhibition is inactive: -3.13%.

As for `O=C(OC1CN2CCC1CC2)C1c2ccccc2Oc2ccccc21` (stereo unspecified), the inhibition is inactive: -0.68%.

Consider `O=c1[nH]c2ccccc2n1C1CCN(C(c2cc3ccccc3o2)c2nnnn2C2CCCCC2)CC1` (stereo unspecified), for which the inhibition is inactive: 1.74%.

With `N#CC1(Nc2ccccc2)CCN(Cc2ccccc2)CC1`, the inhibition is inactive: -0.76%.

Regarding `O=C(NCC1(N2CCCCC2)CCCCC1)c1ccc(Cl)s1`, the inhibition was inactive: 1.67%.

With `O=C(NCC1(N2CCOCC2)CCCCC1)c1cc2ccccc2o1`, the inhibition was inactive: 1.09%.

Turning to `Cc1cc(C)cc(N(C(=O)c2ccccc2)C2CCN(C(=O)OC(C)(C)C)CC2)c1`, the inhibition was inactive: -1.41%.

Turning to `O=c1[nH]c2ccccc2n1C1CCN(C(c2ccccc2OC(F)(F)F)c2nnnn2C2CCCCC2)CC1` (stereo unspecified), the inhibition was inactive: 0.84%.

`O=C(NCC1(N2CCCCC2)CCCCC1)c1ccc(Cl)nc1`: the inhibition was inactive: 0.98%.

Consider `CCCOc1ccc(C(=O)NCC2(N(C)C)CCCCC2)cc1`, for which the inhibition was inactive: 1.1%.

Take `O=c1[nH]c2ccccc2n1C1CCN(C(c2cc3ccccc3o2)c2nnnn2C2CCCC2)CC1` (stereo unspecified): the inhibition was inactive: -1.15%.

For `O=C(O)C1(Nc2ccccc2)CCN(Cc2ccccc2)CC1`, the inhibition was inactive: -0.05%.

In the case of `NN(c1ccccc1)C1CCN(CCc2ccccc2)CC1`, the inhibition is inactive: 0%.

Regarding `CC(C)(C)OC(=O)N1CCC(Nc2ccccc2)CC1`, the inhibition is inactive: 1.52%.

In the case of `CN1CCC(Nc2ccc(F)c(Cl)c2)CC1`, the inhibition is inactive: -0.11%.

In the case of `CCOc1ncccc1C(=O)NCC1(N2CCOCC2)CCCCC1`, the inhibition is inactive: 1.34%.

In the case of `CN1CCC(Nc2ccc(Cl)cc2)CC1`, the inhibition was inactive: -2.9%.

On to `CCC(CO)(C(=O)OC1CN2CCC1CC2)c1ccccc1` (stereo unspecified), for which the inhibition is inactive: -0.65%.

Consider `COc1cccc(C(c2nnnn2C2CCCC2)N2CCC(n3c(=O)[nH]c4ccccc43)CC2)c1OC` (stereo unspecified), for which the inhibition is inactive: -0.72%.

Take `COc1cc(OC)cc(C(=O)NCC2(N3CCOCC3)CCCCC2)c1`: the inhibition is inactive: -1.96%.

In the case of `COc1cccc(C(=O)N(c2cc(C)cc(C)c2)C2CCN(C(=O)OC(C)(C)C)CC2)c1`, the inhibition was inactive: -0.04%.

Regarding `Cc1ccc(NC2(C#N)CCN(Cc3ccccc3)CC2)cc1`, the inhibition was inactive: -3.25%.

As to `Fc1ccccc1NC1CCN(Cc2ccccc2)CC1`, the inhibition was inactive: -1.65%.

Take `Cc1ccc(C(=O)NCC2(N3CCCCC3)CCCCC2)o1`: the inhibition was inactive: -0.98%.

Regarding `O=c1[nH]c2ccccc2n1C1CCN(C(c2ccnc3ccccc23)c2nnnn2C2CCCCC2)CC1` (stereo unspecified), the inhibition was inactive: -1.02%.

In the case of `COc1cc(OC)cc(C(=O)NCC2(N3CCCCC3)CCCCC2)c1`, the inhibition was inactive: -0.16%.

For the molecule `CCC(c1nnnn1C1CCCCC1)N1CCC(n2c(=O)[nH]c3ccccc32)CC1` (stereo unspecified), the inhibition is inactive: -1.33%.

As to `CC(=O)N(c1ccccc1)C1CCNCC1`, the inhibition was inactive: 0.36%.

As to `COc1cccc(C(c2nnnn2C2CCCCC2)N2CCC(n3c(=O)[nH]c4ccccc43)CC2)c1OC` (stereo unspecified), the inhibition is inactive: 1.3%.

On to `Cn1c(=O)[nH]cc(N(CCCl)CCCl)c1=O`, for which the inhibition is inactive: -1.69%.

In the case of `CN(C)c1ccc(C(=O)NCC2(N3CCCCC3)CCCCC2)cc1`, the inhibition was inactive: -0.61%.

With `O=C(NCC1(N2CCCCC2)CCCCC1)c1ccco1`, the inhibition was inactive: -0.71%.

Regarding `CC(C)(C)n1nnnc1C(c1ccnc2ccccc12)N1CCC(n2c(=O)[nH]c3ccccc32)CC1` (stereo unspecified), the inhibition is inactive: -0.31%.

As for `CCN1CCC(Nc2cccc(F)c2)CC1`, the inhibition was inactive: -3.3%.

As for `COc1ccc(C(c2nnnn2C2CCCCC2)N2CCC(n3c(=O)[nH]c4ccccc43)CC2)cc1` (stereo unspecified), the inhibition is inactive: 1.01%.

Consider `Cc1ccccc1NC1(C#N)CCN(Cc2ccccc2)CC1`, for which the inhibition is inactive: 0.16%.
